Experimental data: PubChem BioAssay AID624099 (ICCB-Longwood, 2012)
Test: 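Human genes that papillomavirus E2 requires to repress the HPV18 LCR promoter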 (primary screen). Cells: human C33A cervical carcinoma cells (HPV-negative) stably expressing BPV1 E2 and an HPV18 LCR luciferase reporter. Reagent: siRNA pool against human genes, 40 nM. Timing: 72 h. Read-out: 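Per-well luciferase luminescence, z-scored on each plate against the plate mean and SD with control wells left out, then averaged across three replicate plates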. Reading the numbers: mean z-score and z-score: higher = stronger reporter signal, weaker E2 silencing. Active means: 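Mean z ≥ 2 together with z ≥ 2 in two or more of the three replicates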.
This is an unselected part of about 21,000 reagents. 497 of them (2.4%) were called active. 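Higher z means weaker E2 silencing; only reporter increases were scored, and knock-downs that hurt cell survival may mask genuine repressor factors.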 Entries without a mark were called inactive. Reagents against one gene are numbered here.

How did the screen score TMEM79 (transmembrane protein 79)?
mean z-score: -0.07; z-score, replicate A: -0.49; z-score, replicate B: 0.35; z-score, replicate C: -0.08

With TAB1 (TGF-beta activated kinase 1 (MAP3K7) binding protein 1), how do the results read?
mean z-score: 1.41; z-score, replicate A: 1.29; z-score, replicate B: 1.45; z-score, replicate C: 1.49

Which result is listed for TERT (telomerase reverse transcriptase)?
mean z-score: 0.55; z-score, replicate A: 0.4; z-score, replicate B: 0.64; z-score, replicate C: 0.6

For GATAD1 (GATA zinc finger domain containing 1), how do the results read?
mean z-score: -0.44; z-score, replicate A: -0.4; z-score, replicate B: -0.89; z-score, replicate C: -0.04

With SSU72L3 (SSU72 like 3), how do the results read?
mean z-score: -0.27; z-score, replicate A: -0.38; z-score, replicate B: -0.64; z-score, replicate C: 0.2

For MCAT, what was measured?
mean z-score: -0.06; z-score, replicate A: -0.15; z-score, replicate B: 0.07; z-score, replicate C: -0.11

What did the screen give for BIRC3 (baculoviral IAP repeat containing 3)?
mean z-score: 0.62; z-score, replicate A: 0.56; z-score, replicate B: 0.64; z-score, replicate C: 0.64

What is on record for ZNF80 (zinc finger protein 80)?
mean z-score: 1.15; z-score, replicate A: 1.27; z-score, replicate B: 1.21; z-score, replicate C: 0.98

For SEL1L2 (SEL1L2 adaptor subunit of SYVN1 ubiquitin ligase), what was measured?
mean z-score: 0.58; z-score, replicate A: 0.29; z-score, replicate B: 0.94; z-score, replicate C: 0.51

What did the screen give for CSNK1G2-AS1 (CSNK1G2 antisense RNA 1)?
mean z-score: -0.67; z-score, replicate A: -0.46; z-score, replicate B: -0.51; z-score, replicate C: -1.05

For POM121L1P (POM121 transmembrane nucleoporin like 1, pseudogene) #1, what does the deposit list?
mean z-score: 0.09; z-score, replicate A: 0.12; z-score, replicate B: 0.32; z-score, replicate C: -0.17

For POM121L1P (POM121 transmembrane nucleoporin like 1, pseudogene) #2, what does the deposit list?
mean z-score: 0.39; z-score, replicate A: 0.27; z-score, replicate B: 0.3; z-score, replicate C: 0.62

Records listed so far whose target name starts with S or s (2):
SSU72L3 (SSU72 like 3) → mean z-score = -0.27; z-score, replicate A = -0.38; z-score, replicate B = -0.64; z-score, replicate C = 0.2
SEL1L2 (SEL1L2 adaptor subunit of SYVN1 ubiquitin ligase) → mean z-score = 0.58; z-score, replicate A = 0.29; z-score, replicate B = 0.94; z-score, replicate C = 0.51

More entries follow.
What is on record for FGD2 (FYVE, RhoGEF and PH domain containing 2)?
mean z-score: -0.45; z-score, replicate A: -0.58; z-score, replicate B: -0.37; z-score, replicate C: -0.41

With ABAT (4-aminobutyrate aminotransferase), what was measured?
mean z-score: 0.44; z-score, replicate A: 0.69; z-score, replicate B: 0.19; z-score, replicate C: 0.44

Which result is listed for PLEKHF1 (pleckstrin homology and FYVE domain containing 1)?
mean z-score: -0.42; z-score, replicate A: -0.43; z-score, replicate B: -0.32; z-score, replicate C: -0.52

How did the screen score LOC197387 (retired record)?
mean z-score: 0.02; z-score, replicate A: 0.05; z-score, replicate B: -0.02; z-score, replicate C: 0.03

With SCARF2 (scavenger receptor class F member 2), how do the results read?
mean z-score: -0.24; z-score, replicate A: -0.27; z-score, replicate B: -0.07; z-score, replicate C: -0.37

With DNM1 (dynamin 1), what was measured?
mean z-score: 0.87; z-score, replicate A: 0.9; z-score, replicate B: 0.8; z-score, replicate C: 0.89

With GSC2 (goosecoid homeobox 2), how do the results read?
mean z-score: -1.4; z-score, replicate A: -0.94; z-score, replicate B: -1.95; z-score, replicate C: -1.32

What did the screen give for INE1 (inactivation escape 1)?
mean z-score: -0.12; z-score, replicate A: 0.03; z-score, replicate B: -0.21; z-score, replicate C: -0.18

What did the screen give for SLC22A1?
mean z-score: -0.37; z-score, replicate A: -0.1; z-score, replicate B: -0.23; z-score, replicate C: -0.78
